Laboratory results published in article PMC11964921 (npj Drug Discovery, 2025).

Assays:
[1] = biological target: T1, M. smegmatis cytochrome bc^Mtb-like QcrB^M337V (Mycolicibacterium smegmatis, UniProt A0R051+A0R052, D309E/F156Y/I182M/I312A/M189L/M337V)
[2] = biological target: T1, M. smegmatis cytochrome bc^Mtb-like QcrB^M337V; assay: biochemical
[3] = biological target: T2, M. smegmatis cytochrome bc^Mtb-like QcrB^A312V (Mycolicibacterium smegmatis, UniProt A0R051+A0R052, D309E/F156Y/I182M/I312V/M189L); assay: biochemical
[4] = biological target: M. smegmatis cytochrome bc^Mtb-like (Mycolicibacterium smegmatis, UniProt A0R051+A0R052, D309E/F156Y/I182M/I312A/M189L); assay: biochemical
[5] = biological target: T2, M. smegmatis cytochrome bc^Mtb-like QcrB^A312V
[6] = tested on: M. smegmatis cytochrome bc^Mtb-like QcrA^L349W; assay: biochemical
[7] = biological target: M. smegmatis cytochrome bc^Mtb-like QcrA^L349W (Mycolicibacterium smegmatis, UniProt A0R052+I7GD61, D309E/F156Y/I182M/I312A/L349W/M189L); assay: biochemical

| SMILES | fold increase in IC50 compared to wild-type protein [1] | pIC50 [2] | pIC50 [3] | pIC50 ([4]; IC50 oxygen consumption) | pIC50 ([4]; IC50 oxygen consumption rate) | fold increase in IC50 compared to wild-type protein [5] | fold increase in IC50 compared to wild-type protein [6] | pIC50 [7] |
| --- | --- | --- | --- | --- | --- | --- | --- | --- |
| CCc1nc2ccc(Cl)cn2c1C(=O)NCc1ccc(C2CC3(C2)CN(S(=O)(=O)C(F)(F)F)C3)cc1 [JNJ-2901] | > 700 fold | 4.89 | 4.62 | 7.72 | 7.76 | > 700 fold | 5 fold | 7.01 |
| CCc1nc2ccc(Cl)cn2c1C(=O)NCc1ccc(N2CCC(c3ccc(OC(F)(F)F)cc3)CC2)cc1 [Q203] | – | – | – | – | 7.65 | – | – | – |

pIC50: −log10 of the molar value.
